Pooled drug test results. Numbers come from NIAID ChemDB, via PubChem.

Common to all: whole-cell or culture tests; agent: HIV-1; endpoint: fold resistance

Fold resistance has wild type as its base. Lines come from different laboratories, so protocols vary.

| compound | changes | cells | strain or isolate | read by | value |
|---|---|---|---|---|---|
| CC(C)CN(C[C@@H](O)[C@H](Cc1ccccc1)NC(=O)[C@H](CC(N)=O)NC(=O)c1ccc2ccccc2n1)C(=O)NC(C)(C)C | PR-L10R M46I | MT-4 | NL4-3 | p24 | 1 |
| CC(C)=CCN1Cc2cc(Cl)cc3[nH]c(=S)n(c23)C[C@@H]1C | RT-L74V | HT4 + HT4 LacZ-1 | HXB2 | plaque count | 1.45 |
| Cc1ccnc2c1NC(=O)c1cccnc1N2C1CC1 | RT-Y181C L103N | CEM + CEM-SS | Pyridinone-resistant (RT K103N Y181C) | XTT | >3800 |
| Cc1ccnc2c1NC(=O)c1cccnc1N2C1CC1 | RT-A98G V108I | CEM + CEM-SS | TIBO R82150-resistant (RT A98G V108I) | cytopathic effect / XTT | 60 |
| CC(C)Nc1cccnc1N1CCN(C(=O)c2cc3cc(NS(C)(=O)=O)ccc3[nH]2)CC1 | RT-V106A | CEM | E-2 (RT-V106A) | cytopathic effect | 15 |
| C/C=C/CSc1cc(NC(=S)c2ccsc2C)ccc1Cl | RT-K103N Y181C | CEM + CEM-SS | Pyridinone-resistant (RT Y181C K103N) | cytopathic effect / XTT | >10 |
| CC(C)CN(C[C@@H](O)[C@H](Cc1ccccc1)NC(=O)O[C@H]1CCOC1)S(=O)(=O)c1ccc(N)cc1 | R41K | MT-2 | IIIB | p24 / ELISA | 0.8 |
| CC[C@H]1C(=O)Nc2ccc(F)cc2N1C(=O)OC(C)C | RT-K103N Y144F | CEM | P-1 (RT-K103N Y144F) | cytopathic effect | 50 |
| Fc1cccc(F)c1C1SCc2nc3ccccc3n21 | RT-Y181C | CEM + CEM-SS | UC82-R (RT-Y181C) | cytopathic effect / XTT | >20.3 |
| CCOCn1c(Cc2ccccc2)c(C(C)C)c(=O)[nH]c1=O | RT-L100I | CEM | A-0 (RT-L100I) | cytopathic effect | 1 |
| CCOP(=O)(COc1ccc(C[C@H](NC(=O)O[C@H]2CO[C@H]3OCC[C@H]32)[C@H](O)CN(CC(C)C)S(=O)(=O)c2ccc(OC)cc2)cc1)OCC | 8374-P36 GS-8374-resistant | MT-2 | IIIB | ATP | 3.5 |
| Cc1occc1C(=S)Nc1ccc(Cl)c(/C=N/OC(C)(C)C)c1 | RT-V179D | CEM + CEM-SS | NL4-3 (RT V179D) | cytopathic effect / XTT | 8.75 |
| CC(C)=CCN1Cc2cccc3[nH]c(=S)n(c23)C[C@@H]1C | RT-L100I T139I | CEM + CEM-SS | Costatolide-resistant (RT L100I T139I) | XTT | >350 |
| Cc1cn([C@H]2C[C@H](N=[N+]=[N-])[C@@H](CO)O2)c(=O)[nH]c1=O | D437N L441P | MT-2 | IIIB | p24 / ELISA | 1.3 |
| Cc1cn([C@H]2C[C@H](N=[N+]=[N-])[C@@H](CO)O2)c(=O)[nH]c1=O | RT-M184V | CEM + CEM-SS | 3TC-resistant (RT M184V) | XTT | 0.4 |
| CC(C)(C)NC(=O)[C@@H]1C[C@@H]2CCCC[C@@H]2CN1C[C@@H](O)[C@H](Cc1ccccc1)NC(=O)[C@H](CC(N)=O)NC(=O)c1ccc2ccccc2n1 | PR-L10R M46I L63P V82T | MT-4 | NL4-3 | p24 | 1 |

The first 2 rows once more:

compound | changes | cells | strain or isolate | read by | value
CC(C)CN(C[C@@H](O)[C@H](Cc1ccccc1)NC(=O)[C@H](CC(N)=O)NC(=O)c1ccc2ccccc2n1)C(=O)NC(C)(C)C | PR-L10R M46I | MT-4 | NL4-3 | p24 | 1
CC(C)=CCN1Cc2cc(Cl)cc3[nH]c(=S)n(c23)C[C@@H]1C | RT-L74V | HT4 + HT4 LacZ-1 | HXB2 | plaque count | 1.45